Compound potency records, mixed from different reports. Data source: NIAID ChemDB in PubChem.

All rows: whole-cell or culture tests; agent: Junin virus; cell line: VERO; endpoint: EC50

An empty or dashed field is not shown. Neighbouring rows are from separate reports. ECn is the concentration giving n% inhibition of infection, replication or growth.

compound	strain	value
CC[C@H](O)C1=C[C@@H](n2cnc3c(N)ncnc32)[C@H](O)[C@@H]1O		50 µg/mL
CC(C)=CCC[C@@H](COS(=O)(=O)O)C1CCC2C3CC[C@H]4C[C@H](OS(=O)(=O)O)[C@@H](O)CC4(C)C3CCC21C	IV4454	67.4 µg/mL
Nc1ncnc2c1ncn2[C@@H]1C=C(CO)[C@@H](O)[C@H]1O		0.5 µg/mL
CC[C@@H](C(C)C)[C@H](O)[C@@H](O)[C@@H](C)[C@H]1CC[C@H]2[C@@H]3CC(=O)[C@H]4C[C@@H](OC(C)=O)CC[C@]4(C)[C@H]3CC[C@]12C	IV4454	0.6 µM
Cc1cn([C@@H]2O[C@H](CO)[C@](O)(C(F)(F)F)[C@H]2O)c(=O)[nH]c1=O		>50 µg/mL
Nc1nc(F)nc2c1ncn2[C@@H]1C=C(CO)[C@@H](O)[C@H]1O		0.6 µg/mL
Nc1ncnc2c1ccn2[C@@H]1C[C@H](O)[C@@H](O)[C@H]1O		6 µg/mL
CC[C@@H](C(C)C)[C@@H](O)[C@H](O)[C@@H](C)[C@H]1CC[C@H]2[C@@H]3CC(=O)[C@H]4C[C@@H](Br)CC[C@]4(C)[C@H]3CC[C@]12C	IV4454	0.8 µM
Nc1ccn(C(CF)CCCO)c(=O)n1		>50 µg/mL
C[C@@]1(O)[C@@H](CO)O[C@@H](n2cnc3c(N)ncnc32)[C@@H]1O		10 µg/mL
CC[C@@H](C(C)C)[C@@H](O)[C@H](O)[C@@H](C)[C@H]1CC[C@H]2[C@@H]3CC(=O)[C@H]4C[C@H](O)[C@H](O)C[C@]4(C)[C@H]3CC[C@]12C	XJCI3	1.5 µM
Nc1ccn([C@@H]2C[C@H](CO)[C@@H](O)[C@H]2O)c(=O)n1		0.2 µg/mL
CC[C@@H](C(C)C)[C@H](O)[C@@H](O)[C@@H](C)[C@H]1CC[C@H]2[C@@H]3CC(=O)[C@@]4(O)C[C@@H](Br)CC[C@]4(C)[C@H]3CC[C@]12C	XJCI3	0.5 µM
Nc1ncnc2c1ncn2C(CF)CCCO		>50 µg/mL
CC[C@@H](C(C)C)[C@H](O)[C@@H](O)[C@@H](C)[C@H]1CC[C@H]2[C@@H]3CC(=O)[C@H]4C[C@@H](Br)CC[C@]4(C)[C@H]3CC[C@]12C	IV4454	4.8 µM
Nc1ncnc2c1ncn2[C@H]1C[C@@H](O)[C@H](O)[C@@H]1O		30 µg/mL

A second listing of 2 rows from above:

Nc1ncnc2c1ncn2C(CF)CCCO ; value: >50 µg/mL
CC[C@@H](C(C)C)[C@H](O)[C@@H](O)[C@@H](C)[C@H]1CC[C@H]2[C@@H]3CC(=O)[C@H]4C[C@@H](OC(C)=O)CC[C@]4(C)[C@H]3CC[C@]12C ; strain: IV4454 ; value: 0.6 µM